Compound potency records, mixed from different reports. Data source: NIAID ChemDB in PubChem.

All rows: growth or infection tests; species: Human cytomegalovirus

ECn: concentration that inhibits the pathogen or its effect by n%. An empty or dashed field is not shown. Rows are shuffled and stem from different studies.

structure	cells	read-out	strain	method	result
Nc1ccn(C[C@@H](CO)OCP(=O)(O)O)c(=O)n1	HEL	EC50	DER521 (ganciclovir cidofovir-resistant)	plaque count	3.23 µM
O[C@@H]1[C@H](O)CO[C@H]1n1c(Cl)nc2cc(Cl)c(Cl)cc21	HFF	EC50	R56 (BDCRB- maribavir-resistant)	plaque count	5.3 µM
O=C(NCc1ccc(Cl)cc1)c1c[nH]c2ccc(CCCO)cc2c1=O	-	EC50	DAVIS	virus yield	<3.9 µM
O[C@@H]1[C@H](O)[C@H](O)CO[C@H]1n1c(Br)nc2cc(Cl)c(Cl)cc21	HFF	EC50	Coffman	plaque count	3.8 µM
OC[C@@H]1O[C@@H](n2c(Cl)nc3cc(Cl)c(Cl)cc32)[C@H](O)[C@@H]1O	HFF	EC90	TOWNE	virus yield	5.9 µM
Nc1ccn(C[C@H]2COP(=O)(O)CO2)c(=O)n1	HFF	EC50	AD169	plaque count	0.9 µM
O=C(NCc1ccc(Cl)cc1)c1c[nH]c2ccc(C#CCO)cc2c1=O	-	EC50	DAVIS	plaque count	1.7 µM
OC[C@H]1O[C@@H](n2c(Br)nc3cc(Cl)c(Cl)cc32)[C@H](O)[C@@H]1O	HFF	EC50	TOWNE	virus yield	<0.41 µM
CCCCCCCCCCCCCCCCCCOCCOP1(=O)CO[C@@H](Cn2ccc(N)nc2=O)CO1	MRC-5	EC50	C9209/1-4-4 drug-resistant mutant	plaque count	0.0045 µM
Nc1nc2c(ncn2COC(CO)CO)c(=O)[nH]1	HFF	EC90	TOWNE	virus yield	4 µM
NC(=O)c1c(Cl)c(-c2cccnc2)n2c1CCCC2	HEL	EC50	Acyclovir-resistant	plaque count	0.18 µM
Nc1nc2c(ncn2COC(CO)CO)c(=O)[nH]1	HFF	EC50	D10 (BDCRB-resistant)	plaque count	2.7 µM
CCCCCCCCCCCCCCCCCCOC[C@H](COP(=O)(O)CO[C@H](CO)Cn1ccc(N)nc1=O)OCc1ccccc1	HFF	EC50	1117-R	plaque count	0.01 µM
Nc1ccn(C[C@@H](CO)OCP(=O)(O)O)c(=O)n1	MRC-5	EC50	759D100 drug-resistant mutant	plaque count	2 µM
O=C(NCc1ccc(Cl)cc1)c1c[nH]c2c(F)cc(CCCO)cc2c1=O	-	EC90	DAVIS	virus yield	4.8 µM
Nc1ncnc2c1ncn2C=C1CC1CO	-	EC50	VR5406 (ganciclovir-resistant)	plaque count	1.6 µM
OC[C@H]1O[C@@H](n2c(Br)nc3cc(Cl)c(Cl)cc32)[C@H](O)[C@@H]1O	HFF	EC90	2916R (1263W94-resistant)	virus yield	46 µM
OC[C@H]1O[C@@H](n2c(Br)nc3cc(Cl)c(Cl)cc32)[C@H](O)[C@@H]1O	HFF	EC50	C9209/1-4-4 drug-resistant	plaque count	1.5 µM
CC(C)Nc1nc2cc(Cl)c(Cl)cc2n1[C@H]1O[C@@H](CO)[C@H](O)[C@@H]1O	MRC-5	EC50	C8301	plaque count	0.12 µM
Nc1nc2c(ncn2COC(CO)CO)c(=O)[nH]1	HFF	EC50	C8914-6 drug-resistant	plaque count	104 µM
CCCCCCCCCCCCOCCCOP(=O)(O)CO[C@H](CO)Cn1ccc(N)nc1=O	HFF	EC50	Coffman	plaque count	0.08 µM
COc1cccc(N2CCN(C3=Nc4c(F)cccc4[C@H](CC(=O)O)N3c3cc(C(F)(F)F)ccc3OC)CC2)c1	-	EC50	Clinical isolate 14	plaque count	0.0014 µM
Nc1nc2c(ncn2COC(CO)CO)c(=O)[nH]1	-	EC95	D10 (D341E)	virus yield	3.4 µM
CCCCCCCCCCCCCCCCOP(=O)(O)CO[C@H](CO)Cn1ccc(N)nc1=O	HFF	EC50	1117-R	plaque count	0.01 µM
Nc1nc2c(ncn2COC(CO)CO)c(=O)[nH]1	MRC-5	EC50	C8301	hybridisation	0.25 µM
Nc1ccn(C[C@H]2COP(=O)(O)CO2)c(=O)n1	MRC-5	EC50	C9208/3-3-1	plaque count	1.3 µM

A second listing of 2 rows from above:

structure,cells,read-out,strain,method,result
O[C@@H]1[C@H](O)[C@H](O)CO[C@H]1n1c(Br)nc2cc(Cl)c(Cl)cc21,HFF,EC50,Coffman,plaque count,3.8 µM
Nc1nc2c(ncn2COC(CO)CO)c(=O)[nH]1,HFF,EC90,TOWNE,virus yield,4 µM